A mixed list of measured activities; the numbers were collected in NIAID ChemDB.

Common to all: tests in culture; agent: HIV-1; cell line: H9; measure: inhibition

Blank or dashed fields: not listed here. Rows are shuffled and stem from different studies. Percent inhibition refers to the dose given; in toxicity tests it is the harm to the cells.

compound	strain or isolate	read by	dose	result
NCCCC(NC(=O)CCCCCCCCN=C(N)N)C(O)CCCCCCCCN=C(N)N	IIIB	RT activity	100 µg/mL	70%
O=C(CCCCCCCCCCC(=O)Nc1cc(S(=O)(=O)O)cc2cc(S(=O)(=O)O)cc(O)c12)Nc1cc(S(=O)(=O)O)cc2cc(S(=O)(=O)O)cc(O)c12	-	p24	20 µg/mL	94%
CCCCCCCCCCCCC/C=C/[C@@H](O)C(CO)NC(=O)CCCCC(=O)Nc1ccc2[nH]c(C(=O)N3CCN(c4ncccc4NC(C)C)CC3)cc2c1	IIIB	p24	0.1 µM	59%
O=C1O[C@@H]2[C@@H](OC(=O)c3cc(O)c(O)c(O)c3-c3c1cc(O)c(O)c3O)[C@@H](O)O[C@@H]1COC(=O)c3cc(O)c(O)c(O)c3-c3c(O)c(O)c4oc(=O)c5c(c(O)c(O)c6oc(=O)c3c4c65)-c3c(cc(O)c(O)c3O)C(=O)O[C@@H]21	IIIB	p24	5 µg/mL	57%
Nc1ncnc2c1ncn2[C@@H]1O[C@H](COP(=O)([O-])O[C@@H]2C[C@@H](COP(=O)([O-])O)O[C@H]2n2cnc3c(N)ncnc32)[C@@H](O)[C@H]1OP(=O)([O-])OC[C@@H]1C[C@@H](O)[C@H](n2cnc3c(N)ncnc32)O1	IIIB	p24	1 µM	75%
COc1cc([C@@H]2c3cc4c(cc3[C@H](O)[C@H]3COC(=O)[C@H]23)OCO4)cc(OC)c1OC	IIIB	p24	0.05 µM	0%
C[C@H]1[C@H](O)[C@@H](C)/C=C/C=C/C=C/C=C/C=C/C=C/C=C/[C@H](O[C@@H]2O[C@H](C)[C@@H](O)[C@H](N)[C@@H]2O)C[C@@H]2O[C@](O)(C[C@@H](O)C[C@@H](O)CC[C@H](O)[C@@H](O)C[C@@H](O)CC(=O)O[C@H]1C)C[C@H](O)[C@H]2C(=O)O	IIIB	p24 / antigen	10 µg/mL	72%
C=C1C[C@@H](CO)O[C@H]1n1ccc(N)nc1=O	-	-	100 µM	0%
O=C(O[C@@H]1[C@H](O)C[C@@](OC(=O)c2cc(O)c(O)c(O)c2)(C(=O)O)C[C@H]1OC(=O)c1cc(O)c(O)c(O)c1)c1cc(O)c(O)c(O)c1	IIIB	p24	40 µM	78%
CC(S)C(=O)NCC(=O)O	-	syncytia	600 µg/mL	93%
NCC(=O)O	SF2	p24	100 µM	0%
NC(=O)n1c(O)c(C(=O)c2cccs2)c2cc(Cl)ccc21	MN	p24	45 µM	69%
CC(=O)N(O)CCCCCNC(=O)CCC(=O)N(O)CCCCCNC(=O)CCC(=O)N(O)CCCCCN	IIIB	p24	20 µM	70%
O=C(O)C[C@@H]1C(=O)O[C@H]2[C@@H]3OC(=O)c4cc(O)c(O)c(O)c4-c4c(cc(O)c(O)c4O)C(=O)OC[C@H]2O[C@@H](OC(=O)c2cc(O)c(O)c(O)c2)[C@@H]3OC(=O)c2cc(O)c(O)c3c2[C@H]1[C@H](O)C(=O)O3	IIIB	p24	0.2 µg/mL	3%
Cc1cn(C2CC3C(O)C(C)C3(N=[N+]=[N-])O2)c(=O)[nH]c1=O	IIIB	p24 / antigen	25 µM	30%
COc1cc(O)c(CC=C(C)C)c(O)c1C(=O)/C=C/c1ccc(O)cc1	IIIB	p24	121.8 µM	54.2%
O=C1O[C@@H]2[C@@H](OC(=O)c3cc(O)c(O)c(O)c3-c3c1cc(O)c(O)c3O)[C@@H](O)O[C@@H]1COC(=O)c3cc(O)c(O)c(O)c3-c3c(O)c(O)c4oc(=O)c5c(c(O)c(O)c6oc(=O)c3c4c65)-c3c(cc(O)c(O)c3O)C(=O)O[C@@H]21	IIIB	p24	5 µM	63%
CCCCCCCCCCCCC/C=C/[C@@H](O)C(CO[C@@H]1O[C@H](CO)[C@H](O)[C@H](O)[C@H]1O)NC(=O)CCCCCOc1ccc2[nH]c(C(=O)N3CCN(c4ncccc4NC(C)C)CC3)cc2c1	IIIB	p24	0.1 µM	66%
Nc1ncnc2c1ncn2[C@@H]1O[C@H](COP(=O)(O)O[C@@H]2[C@H](O)[C@@H](COP(=O)(O)O[C@@H]3[C@H](O)[C@@H](COP(=O)(O)O)O[C@H]3n3cnc4c(N)ncnc43)O[C@H]2n2cnc3c(N)ncnc32)[C@@H](O)[C@H]1O	IIIB	p24	1 µM	5%
CCNc1cccnc1N1CCN(C(=O)c2cc3cc(O)ccc3[nH]2)CC1	IIIB	p24	0.1 µM	40%
O=C1OCC2OC(O)C(O)C(O)C2OC(=O)c2cc(O)c(O)c(O)c2-c2c(O)c(O)c3oc(=O)c4c(c(O)c(O)c5oc(=O)c2c3c54)-c2c1cc(O)c(O)c2O	IIIB	p24	20 µg/mL	75%
CCc1cc(CCN2C(=O)c3ccccc3C2=O)c(=O)[nH]c1C	IIIB	p24	40 µM	95%
C[C@H](CCC(=O)N[C@@H](Cc1cc(I)c(O)cc1I)C(=O)O)[C@H]1CC[C@H]2[C@@H]3CCC4C[C@H](O)CC[C@]4(C)[C@H]3C[C@H](O)[C@]12C	IIIB	syncytia	0.001 µg/mL	67.4%
CN(C)c1ncnc2c1ncn2[C@@H]1O[C@H](CO)[C@@H](N)[C@H]1O	X	RT activity	2 µg/mL	95%
O=C(O)C1=C[C@@H](OC(=O)c2cc(O)c(O)c(O)c2)[C@@H](OC(=O)c2cc(O)c(O)c(O)c2)[C@H](OC(=O)c2cc(O)c(O)c(O)c2)C1	IIIB	p24	20 µg/mL	23%
CCN(CC)C(=S)S	LAV	RT activity	0.0000025 µg/mL	21%
O=C(O)C1=C[C@@H](OC(=O)c2cc(O)c(O)c(O)c2)[C@@H](O)[C@H](OC(=O)c2cc(O)c(O)c(O)c2)C1	IIIB	p24	10 µM	45%
Nc1ncnc2c1ncn2[C@@H]1O[C@H](COP(=O)(O)O[C@@H]2[C@H](O)[C@@H](COP(=O)(O)O[C@@H]3[C@H](O)[C@@H](CO)O[C@H]3n3cnc4c(N)ncnc43)O[C@H]2n2cnc3c(N)ncnc32)[C@@H](O)[C@H]1O	IIIB	p24	1 µM	10%
O=P(O)(O)OP(=O)(O)OP(=O)(O)OP(=O)(O)O	IIIB	RT activity	100 µg/mL	30%
NC(=O)NO	-	RT activity	200 µM	72.8%
Nc1ncnc2c1ncn2C1OC(COP(=O)(O)OC2C(O)C(COP(=O)(O)OC3C(O)C(CO)OC3n3cnc4c(N)ncnc43)OC2n2cnc3c(N)ncnc32)CC1O	IIIB	p24	1 µM	5%
O=C(O)C[C@H]1C(=O)O[C@H]2[C@H](OC(=O)c3cc(O)c(O)c(O)c3)[C@@H](OC(=O)c3cc(O)c(O)c4c3[C@H]1[C@H](O)C(=O)O4)[C@H](OC(=O)c1cc(O)c(O)c(O)c1)O[C@@H]2COC(=O)c1cc(O)c(O)c(O)c1	IIIB	p24	20 µg/mL	90%
NC(=O)CNC(=O)[C@@H]1CCCN1	SF2	p24	100 µM	40%
O=C(O)C1=C[C@@H](OC(=O)c2cc(O)c(O)c(O)c2)[C@@H](OC(=O)c2cc(O)c(O)c(O)c2)[C@H](OC(=O)c2cc(O)c(O)c(O)c2)C1	IIIB	p24	30 µM	73%
NCC(=O)N1CCC[C@H]1C(=O)O	SF2	p24	100 µM	11%
Nc1ccn(C2C[C@H](CO)[C@@H](CO)C2)c(=O)n1	IIIB	RT activity	10 µg/mL	39%

3 of the rows above, restated:

compound,strain or isolate,read by,dose,result
NCC(=O)N1CCC[C@H]1C(=O)O,SF2,p24,100 µM,11%
CCCCCCCCCCCCC/C=C/[C@@H](O)C(CO)NC(=O)CCCCC(=O)Nc1ccc2[nH]c(C(=O)N3CCN(c4ncccc4NC(C)C)CC3)cc2c1,IIIB,p24,0.1 µM,59%
Nc1ncnc2c1ncn2[C@@H]1O[C@H](COP(=O)(O)O[C@@H]2[C@H](O)[C@@H](COP(=O)(O)O[C@@H]3[C@H](O)[C@@H](COP(=O)(O)O)O[C@H]3n3cnc4c(N)ncnc43)O[C@H]2n2cnc3c(N)ncnc32)[C@@H](O)[C@H]1O,IIIB,p24,1 µM,5%